Reference: PMC6410080 (Viruses, 2019)

System: SFV internalisation
Assay: SFV internalisation assay (subtilisin resistance)
Assay type: cell-based, Semliki Forest virus
Conditions: HeLa Kyoto, 10 μM, 20, 40 or 60 min at 37 °C

CC(C)(C)c1cc(C=C(C#N)C#N)cc(C(C)(C)C)c1O [Tyrphostin A9] was tested, and the “Kinetics of SFV internalisation (subtilisin resistance)” value was “remained lower compared to untreated control”.
